Where two headings read alike, the source gives them in different places.
Biological target: MtEis (Mycobacterium tuberculosis, UniProt P9WFK7)
Assay: Steady-state acetyltransferase assays (DTNB, absorbance at 412 nm), bisubstrate kinetic analysis
Format: biochemical

Protein sequences, listed by entry. Tags and fused reporters are not part of them. Lines headed by an entry give the natural chain unless they say otherwise; changes in a name come on top.
UniProt P9WFK7: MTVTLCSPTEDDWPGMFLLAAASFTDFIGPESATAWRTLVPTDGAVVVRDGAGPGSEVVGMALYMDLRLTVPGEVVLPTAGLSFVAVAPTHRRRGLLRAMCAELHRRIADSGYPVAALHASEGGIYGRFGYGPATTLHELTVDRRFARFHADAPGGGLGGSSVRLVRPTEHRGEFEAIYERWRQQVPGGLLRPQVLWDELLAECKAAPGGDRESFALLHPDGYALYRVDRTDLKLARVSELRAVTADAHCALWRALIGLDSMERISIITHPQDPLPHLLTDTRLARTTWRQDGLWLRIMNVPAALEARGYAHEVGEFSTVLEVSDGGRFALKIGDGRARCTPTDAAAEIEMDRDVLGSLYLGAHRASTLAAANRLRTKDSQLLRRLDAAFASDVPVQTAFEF

With kanamycin A the Kd (binding of AG to free enzyme, from thermodynamic cycle K d,AcCoA(E) K d,AG(AcCoA•E)/K d,AcCoA(AG•E), read-out: K d,AG(E)) was 176 ± 144 µM and the Kd (binding of AG to the AcCoA bound enzyme, simultaneous fit of KAN and NEO acetylation data, read-out: K d,AG(AcCoA•E)) was 439 ± 52 µM.

Reference: PMC3974725, “A Random Sequential Mechanism of Aminoglycoside Acetylation by Mycobacterium tuberculosis Eis Protein” (PLoS ONE, 2014)
